Results of unrelated studies side by side (data: NIAID ChemDB).

Shared fields: growth or infection tests; species: HIV-1

Neighbouring rows are from separate reports. An empty or dashed field is not shown. ECn: concentration that inhibits the pathogen or its effect by n%.

compound,changes,method,strain or isolate,read-out,cell line,result
Cc1cn([C@H]2C[C@H](N=[N+]=[N-])[C@@H](CO)O2)c(=O)[nH]c1=O,RT-M41L K103N T215Y,p24,S159-2 Clinical isolate ZDV-resistant,EC50,PBMC,0.7 µM
Cc1nnc(C[C@H](C[C@H](O)CN2CCN(C(C)(C)c3ncc(-c4ccc(F)cc4)o3)C[C@H]2C(=O)NCC(F)(F)F)C(=O)N[C@H]2c3ccccc3OC[C@H]2O)o1,,p24,NL4-3 WT,EC50,MT-4,<0.125 µM
Cc1cn([C@H]2C[C@H](N=[N+]=[N-])[C@@H](CO)O2)c(=O)[nH]c1=O,,p24 / ELISA,HXB2,EC50,MT-4,0.128 µM
NCC(=O)Nc1ccc(Cl)cc1C(=O)c1ccc[nH]1,,cytopathic effect / MTT,IIIB,EC50,MT-4,>1.7 µg/mL
CC(C)(c1ncc(-c2ccc(Cl)cc2)o1)N1CCN(C[C@@H](O)C[C@@H](Cc2nnc(-c3ccccc3)o2)C(=O)N[C@H]2c3ccccc3OC[C@H]2O)[C@H](C(=O)NCC(F)(F)F)C1,,p24,NL4-3 WT,EC50,MT-4,<0.008 µM
Cc1cn([C@H]2C[C@H](N=[N+]=[N-])[C@@H](CO)O2)c(=O)[nH]c1=O,,cytopathic effect / XTT,McK,EC50,CEM + CEM-SS,0.006 µM
Cc1ccnc2c1NC(=O)c1cccnc1N2C1CC1,RT-A98G K103R,,BCF06,EC50,PBMC,0.12 µM
CCCc1nnc(C[C@H](C[C@H](O)CN2CCN(C(C)(C)c3ncc(-c4cncc(OC)c4)o3)C[C@H]2C(=O)NCC(F)(F)F)C(=O)N[C@H]2c3ccccc3OC[C@H]2O)o1,PR-L10I N37S R41K M46I I54V I62V L63P A71V V77I V82A L90M I93L,p24,Q-60 Clinical isolate,EC50,MT-4,<0.5 µM
Fc1cccc(F)c1C1SCc2nc3ccccc3n21,,cytopathic effect / XTT,IIIB,EC50,CEM + CEM-SS,0.6 µM
O=C(NCc1ccc(F)cc1)c1nc(N2CCCCS2(=O)=O)c2cccnc2c1O,,p24,,EC50,,0.008 µM
Cn1c2ccccc2c2c1cc(C#N)c(=O)n2-c1ccc([N+](=O)[O-])cc1,RT-M41L D67N M184V L210W T215Y,luciferase,NRTI resistant,EC50,HeLa,0.155 µM
CCc1cc(NCc2nc3ccccc3o2)c(=O)[nH]c1C,,p24,A17,EC50,MT-4,<100 µM
CC(C)=CCN1Cc2cc(Cl)cc3[nH]c(=S)n(c23)C[C@@H]1C,RT-A98G Y181C,,BCF08,EC50,PBMC,>6.25 µM
COc1ccc(S(=O)(=O)N(CC(C)C)C[C@@H](O)[C@H](Cc2ccccc2)NC(=O)O[C@H]2CO[C@@H]3O[C@H]4OCC[C@H]4[C@@H]32)cc1,,MTT,LAI,EC50,MT-2,0.33 µM
O=C(N[C@H]1c2ccccc2OC[C@H]1O)[C@H](Cc1nnc(-c2ccccc2)o1)C[C@H](O)CN1CCN(Cc2ccc(-c3ccc(Cl)cc3)o2)C[C@H]1C(=O)NCC(F)(F)F,PR-L10I M36I N37D M46I R57K L63P A71V G73S I84V L90M I93L,p24,V-18 Clinical isolate,EC50,MT-4,<0.25 µM
CC(C)CN(C[C@@H](O)[C@H](Cc1ccccc1)NC(=O)O[C@H]1CCOC1)S(=O)(=O)c1ccc(N)cc1,,p24 / luminescence,ERS104pre,EC50,PBMC,0.0338 µM
CC(C)Nc1cccnc1N1CCN(C(=O)c2cc3cc(NS(C)(=O)=O)ccc3[nH]2)CC1,RT-P236L,antigen,MFE30(RT-P236L),EC50,MT-4,~0.9 µM
N#Cc1cc2[nH]c3ccccc3c2n(-c2ccc([N+](=O)[O-])cc2)c1=O,RT-M184V,luciferase,Recombinant,EC50,HeLa,0.62 µM
CC(C)(C)NC(=O)[C@@H]1C[C@@H]2CCCC[C@@H]2CN1C[C@@H](O)[C@H](Cc1ccccc1)NC(=O)[C@H](CC(N)=O)NC(=O)c1ccc2ccccc2n1,PR-L10V T12I G16E R57K I64V,p24,Isolate A PR L10V/T12I/G16E/R57K/I64V,EC50,PBMC,<0.025 µM
Cc1ccnc(C(=O)CC(=O)c2cccc(Cc3ccccc3)c2)c1,,p24,IIIB,EC50,MT-4,<5 µM
Cc1cn([C@H]2C[C@H](N=[N+]=[N-])[C@@H](CO)O2)c(=O)[nH]c1=O,,plaque count,A012B (RT-WT),EC50,HT4 + HT4-6C,0.01 µM
Cc1ccnc2c1NC(=O)c1cccnc1N2C1CC1,,p24,IIIB,EC50,PBMC,0.024 µM
CC(C)=CCN1Cc2cccc3[nH]c(=S)n(c23)C[C@@H]1C,,p24,rA17,EC50,MT-4,<100 µM
Cc1nnc(C[C@H](C[C@H](O)CN2CCN(Cc3ccc(-c4ccc(Cl)cc4)o3)C[C@H]2C(=O)NCC(F)(F)F)C(=O)N[C@H]2c3ccccc3OC[C@H]2O)o1,PR-L10I M36I N37D M46I R57K L63P A71V G73S I84V L90M I93L,p24,V-18 Clinical isolate,EC50,MT-4,<0.063 µM
O=c1[nH]cnc2c1ncn2[C@H]1CC[C@@H](CO)O1,RT-A98G,,VAU (RT-A98G),EC50,PBMC,0.5 µM
O=c1[nH]cnc2c1ncn2[C@H]1CC[C@@H](CO)O1,,p24,A17,EC50,MT-4,<6.25 µM
Cc1c(O)cccc1C(=O)N[C@@H](CSc1ccccc1)[C@H](O)CN1C[C@H]2CCCC[C@H]2C[C@H]1C(=O)NC(C)(C)C,PR-L10I K43T M46L I54L L63P A71T V82A L90M Q92K,p24,Clinical isolate,EC50,PBMC,0.41 µM
CC(C)(C)NC(=O)[C@@H]1C[C@@H]2CCCC[C@@H]2CN1C[C@@H](O)[C@H](Cc1ccccc1)NC(=O)[C@H](CC(N)=O)NC(=O)c1ccc2ccccc2n1,,MTT,LAI,EC50,MT-2,0.026 µM
O=C(O)C(=O)CC(=O)c1cc(OCc2ccccc2)cc(OCc2ccccc2)c1,,p24,IIIB,EC50,MT-4,<17.4 µM
Nc1ccn([C@H]2CC[C@@H](CO)O2)c(=O)n1,,p24,LAV,EC50,PBL,0.096 µM
CN[C@@H]1[C@H](O[C@@H]2OC[C@@H](O)[C@H](O)[C@H]2O)[C@@H](O)[C@H](O[C@H]2c3cc(C)c(C(=O)N[C@H](C)C(=O)O)c(O)c3-c3c(cc4c(c3O)C(=O)c3cc(OC)cc(O)c3C4=O)[C@@H]2O)O[C@@H]1C,,p24,US2 R5 CLADE B,EC50,PBMC,2.3 µg/mL
CC(C)c1nc(CN(C)C(=O)N[C@H](C(=O)N[C@@H](Cc2ccccc2)C[C@H](O)[C@H](Cc2ccccc2)NC(=O)OCc2cncs2)C(C)C)cs1,PR-L10I I15V E35D N37E K45R I54V L63P A71V V82T L90M I93L C95F,p24,Clinical isolate,EC50,PBMC,>1 µM
Cc1cn([C@H]2C=C[C@@H](CO)O2)c(=O)[nH]c1=O,RT-M41L S68N G112S M184V,luciferase,Recombinant,EC50,HeLa,0.73 µM
CC(C)CN(C[C@@H](O)[C@H](Cc1ccccc1)NC(=O)[C@H](CC(N)=O)NC(=O)c1ccc2ccccc2n1)C(=O)NC(C)(C)C,PR-L10V T12I G16E R57K I64V,p24,Isolate A PR L10V/T12I/G16E/R57K/I64V,EC95,PBMC,0.2 µM
CC(C)CN(C[C@@H](O)[C@H](Cc1ccccc1)NC(=O)O[C@H]1CCOC1)S(=O)(=O)c1ccc(N)cc1,,p24,LAI Laboratory isolate,EC50,PBMC,0.017 µM
CC(C)(c1ncc(-c2ccc(F)cc2)o1)N1CCN(C[C@@H](O)C[C@@H](Cc2nnc(-c3ccccc3)o2)C(=O)N[C@H]2c3ccccc3OC[C@H]2O)[C@H](C(=O)NCC(F)(F)F)C1,PR-L10I N37S R41K M46I I54V I62V L63P A71V V77I V82A L90M I93L,p24,Q-60 Clinical isolate,EC50,MT-4,<0.016 µM
COc1ccc(S(=O)(=O)N(CC(C)C)C[C@@H](O)[C@H](Cc2ccccc2)NC(=O)O[C@H]2CO[C@H]3OCC[C@H]32)cc1,PR-L10I I15V E35D N37E K45R I54V L63P A71V V82T L90M I93L C95F,p24,Clinical isolate,EC50,PBMC,0.001 µM
COc1cncc(-c2cnc(C(C)(C)N3CCN(C[C@@H](O)C[C@@H](Cc4nnc(-c5ccccc5)o4)C(=O)N[C@H]4c5ccccc5OC[C@H]4O)[C@H](C(=O)NCC(F)(F)F)C3)o2)c1,,p24,NL4-3 WT,EC50,MT-4,<0.125 µM